By Kd is commonly meant a measure of binding affinity in units of concentration. Low readings indicate tighter binding, high ones weaker binding. Broadly, the IC50 is the midpoint of a concentration-inhibition curve.

Protein sequences, listed by entry. Tags and fused reporters are not part of them. Residues count along the entry.
UniProt O68720, 164-468 limits assumed: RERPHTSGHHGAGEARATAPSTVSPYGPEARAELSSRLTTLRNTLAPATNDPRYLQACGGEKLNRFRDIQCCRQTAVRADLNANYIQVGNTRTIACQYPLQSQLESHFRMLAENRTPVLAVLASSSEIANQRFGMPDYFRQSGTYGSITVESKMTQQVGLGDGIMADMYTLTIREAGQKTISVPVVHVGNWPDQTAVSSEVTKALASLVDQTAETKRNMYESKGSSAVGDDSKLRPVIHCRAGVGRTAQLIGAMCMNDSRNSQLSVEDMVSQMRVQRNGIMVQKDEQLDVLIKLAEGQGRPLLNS

One assay concerns the target wild-type YopH (Yersinia pestis, UniProt O68720). The format is binding.
The next assay addresses YopH (Yersinia pestis, UniProt O68720). As to conditions: read-out: pNPP IC50; cited from earlier work.

The substance “(difluoro((3-(4-((((E)-furan-3-ylmethylidene)amino)oxy)methyl)phenyl)phenyl))methyl) phosphonic acid [compound 1]” showed a Kd at wild-type YopH of 311 µM. Also, the IC50 on YopH was 3.67 µM.
“(difluoro((3-(4-((((E)-furan-2-ylmethylidene)amino)oxy)methyl)phenyl)phenyl))methyl) phosphonic acid [compound 2]” displayed a Kd at wild-type YopH of 141 µM. Further, the IC50 at YopH was 1.2 µM.

(Values after PMC3573263 (Chemical biology & drug design, 2013).)
